Measured values from several laboratories, pooled; numbers as filed in NIAID ChemDB.

Common to all: tests in culture; agent: HIV-1; cells: MT-2; endpoint: EC50

Blank or dashed fields: not listed here.

{"structure": "O=C1CNc2cc(CN3C(=O)N(Cc4ccc5c(c4)NCC(=O)N5)[C@H](Cc4ccccc4)[C@H](O)[C@@H](O)[C@H]3Cc3ccccc3)ccc2N1", "strain": "RF", "result": "<7.7 µM"}
{"structure": "N#CN=C1N(Cc2ccc(O)cc2)[C@H](Cc2ccccc2)[C@H](O)[C@@H](O)[C@@H](Cc2ccccc2)N1Cc1ccc(O)cc1", "strain": "RF", "read by": "hybridisation", "result": "<0.25 µM"}
{"structure": "O=C1N(Cc2cccc(CO)c2)[C@H](Cc2ccccc2)[C@H](O)[C@@H](O)[C@@H](Cc2ccccc2)N1Cc1cccc(CO)c1", "strain": "RF", "read by": "hybridisation", "result": "<0.038 µM"}
{"structure": "C=CCN1C(=NC#N)N(CC=C)[C@H](Cc2ccccc2)[C@H](O)[C@@H](O)[C@H]1Cc1ccccc1", "strain": "RF", "read by": "hybridisation", "result": "<51 µM"}
{"structure": "CCCCN1C(=O)N(Cc2ccc3ccccc3c2)[C@H](Cc2ccccc2)[C@H](O)[C@@H](O)[C@H]1Cc1ccccc1", "strain": "RF", "read by": "hybridisation", "result": "<0.75 µM"}
{"structure": "Cc1cn([C@H]2C[C@H](N=[N+]=[N-])[C@@H](CO)O2)c(=O)[nH]c1=O", "strain": "IIIB", "read by": "XTT", "result": "0.04 µM"}
{"structure": "COC(=O)N[C@H](C(=O)N[C@@H](Cc1ccccc1)[C@@H](O)CN(Cc1ccc(-c2ccccn2)cc1)NC(=O)[C@@H](NC(=O)OC)C(C)(C)C)C(C)(C)C", "strain": "92UG037", "read by": "p24 / luminescence", "result": "0.0038 µM"}
{"structure": "CC(C)=CCN1Cc2cccc3[nH]c(=S)n(c23)C[C@@H]1C", "strain": "HX(RT-S156A)", "changes": "RT-S156A", "read by": "RT activity", "result": "0.09 µM"}
{"structure": "CC(C)CCN1C(=NC#N)N(CCC(C)C)[C@H](Cc2ccccc2)[C@H](O)[C@@H](O)[C@H]1Cc1ccccc1", "strain": "RF", "read by": "hybridisation", "result": "<1.1 µM"}
{"structure": "CCCCCCCCCCCCCCCCCCOCC(COP(=O)(O)C(=O)O)(OC)OC", "strain": "LAI", "read by": "p24", "result": "0.49 µM"}
{"structure": "CC(C)CN(C[C@@H](O)[C@H](Cc1ccccc1)NC(=O)O[C@H]1CCOC1)S(=O)(=O)c1ccc(N)cc1", "strain": "IIIB", "changes": "K112M K113E V128I M200I H219P I401T R409K D437N L441P", "read by": "p24 / ELISA", "result": "0.0473 µM"}
{"structure": "CC(C)Nc1cccnc1N1CCN(C(=O)c2cc3cc(N=CN(C)C)ccc3[nH]2)CC1", "strain": "LAV", "result": "0.22 µM"}
{"structure": "CCOP(=O)(COc1ccc(C[C@H](NC(=O)O[C@H]2CO[C@H]3OCC[C@H]32)[C@H](O)CN(CC(C)C)S(=O)(=O)c2ccc(OC)cc2)cc1)OCC", "strain": "IIIB", "changes": "D437N L441P", "read by": "p24 / ELISA", "result": "0.008 µM"}
{"structure": "O=C1N(Cc2cccc(O)c2)[C@H](Cc2ccccc2)[C@H](O)[C@@H](O)[C@@H](Cc2ccccc2)N1Cc1cccc(O)c1", "strain": "RF", "read by": "hybridisation", "result": "<0.054 µM"}
{"structure": "Cc1cn([C@H]2C[C@H](N=[N+]=[N-])[C@@H](CO)O2)c(=O)[nH]c1=O", "strain": "A17", "changes": "Pyridinone-resistant", "read by": "cytopathic effect / XTT", "result": "0.005 µM"}
{"structure": "Cc1occc1C(=S)Nc1ccc(Cl)c(/C=N/OC(C)(C)C)c1", "strain": "IIIB", "read by": "cytopathic effect / XTT", "result": "0.2 µM"}
{"structure": "O=C1N(Cc2ccc3[nH]c(=O)cnc3c2)[C@H](Cc2ccccc2)[C@H](O)[C@@H](O)[C@@H](Cc2ccccc2)N1Cc1ccc2[nH]c(=O)cnc2c1", "strain": "RF", "result": "<7.8 µM"}
{"structure": "Cc1nc(Nc2cc(F)ncc2F)c(-c2ccc(OCCc3ccc(F)cc3)cc2)c(N2CCC(C)(C)CC2)c1[C@H](OC(C)(C)C)C(=O)O", "strain": "NL4-3", "read by": "luciferase", "result": "0.021 µM"}
{"structure": "C[C@H](Cn1cnc2c(N)ncnc21)OCP(=O)(O)O", "strain": "HXB2D (RT D67N K70R T215Y)", "changes": "RT-D67N K70R T215Y", "result": "0.0072 µM"}
{"structure": "Cc1ccc(S(=O)(=O)N(CC(C)C)C[C@@H](O)[C@H](Cc2ccccc2)NC(=O)O[C@H]2CO[C@H]3OCC[C@H]32)cc1", "strain": "IIIB", "changes": "I401T R409K D437N", "read by": "p24 / ELISA", "result": "0.008 µM"}
{"structure": "CCCCCCCCCCCCCCCCCCOC[C@@H](COP(=O)(O)C(=O)O)OCCCCCCCCCCCC", "strain": "LAI", "read by": "p24", "result": "59.7 µM"}
{"structure": "Nc1nc2ccc(CN3C(=O)N(Cc4ccc5nc(N)sc5c4)[C@H](Cc4ccccc4)[C@H](O)[C@@H](O)[C@H]3Cc3ccccc3)cc2s1", "strain": "RF", "result": "<0.27 µM"}
{"structure": "Cc1cc(-c2cnc(CO)c([C@H](OC(C)(C)C)C(=O)O)c2N2CCC(C)(C)CC2)ncc1OCCc1ccc(F)cc1", "strain": "NL4-3", "read by": "luciferase", "result": "0.009 µM"}
{"structure": "O=C1N(Cc2ccccc2F)[C@H](Cc2ccccc2)[C@H](O)[C@@H](O)[C@@H](Cc2ccccc2)N1Cc1ccccc1F", "strain": "RF", "read by": "hybridisation", "result": "<5.5 µM"}
{"structure": "Nc1ccn([C@H]2CC[C@@H](CO)O2)c(=O)n1", "strain": "H112-2", "read by": "cytopathic effect / MTT", "result": "0.32 µM"}
{"structure": "N#CN=C1N(CC2CCCCC2)[C@H](Cc2ccccc2)[C@H](O)[C@@H](O)[C@@H](Cc2ccccc2)N1CC1CCCCC1", "strain": "RF", "read by": "hybridisation", "result": "<1.1 µM"}
{"structure": "COC(=O)N[C@H](C(=O)N[C@@H](Cc1ccccc1)[C@@H](O)CN(Cc1ccc(-c2ccccn2)cc1)NC(=O)[C@@H](NC(=O)OC)C(C)(C)C)C(C)(C)C", "strain": "MN", "result": "<0.003 µM"}
{"structure": "O=C1N(Cc2cccc([N+](=O)[O-])c2)[C@H](Cc2ccccc2)[C@H](O)[C@@H](O)[C@@H](Cc2ccccc2)N1Cc1cccc([N+](=O)[O-])c1", "strain": "RF", "read by": "hybridisation", "result": "<0.97 µM"}
{"structure": "C[C@H](Cn1cnc2c(N)ncnc21)OCP(=O)(OCOC(=O)NC(C)(C)C)OCOC(=O)NC(C)(C)C", "strain": "IIIB", "read by": "cytopathic effect / MTT", "result": ">10 µM"}
{"structure": "Cc1ccnc2c1NC(=O)c1cccnc1N2C1CC1", "strain": "IIIB", "read by": "cytopathic effect / XTT", "result": "0.1 µM"}
{"structure": "O=C1N(Cc2ccncc2)[C@H](Cc2ccccc2)[C@H](O)[C@@H](O)[C@@H](Cc2ccccc2)N1Cc1ccc2ccccc2c1", "strain": "RF", "read by": "hybridisation", "result": "<2.7 µM"}
{"structure": "Nc1ccn([C@H]2CC[C@@H](CO)O2)c(=O)n1", "strain": "HXB2D (RT D67N K70R T215Y)", "changes": "RT-D67N K70R T215Y", "result": "0.006 µM"}
{"structure": "O=C1N(CC2CCC2)[C@H](Cc2ccccc2)[C@H](O)[C@@H](O)[C@@H](Cc2ccccc2)N1CC1CCC1", "strain": "RF", "read by": "hybridisation", "result": "<1 µM"}
{"structure": "CCCCCCCCCCCCCCCCCCOC[C@@H](COP(=O)(O)C(=O)O)OCCCCCCCC", "strain": "LAI", "read by": "p24", "result": "5.61 µM"}
{"structure": "O=c1[nH]cnc2c1ncn2[C@H]1CC[C@@H](CO)O1", "strain": "PDBC", "read by": "RT activity", "result": "2.7 µM"}
{"structure": "CCCCCCCCCCCCCCCCCCOCCCOP(=O)(O)C(=O)O", "strain": "LAI", "read by": "p24", "result": "0.95 µM"}
{"structure": "O=C1N(Cc2ccc(CO)cc2)[C@H](Cc2ccccc2)[C@H](O)[C@@H](O)[C@@H](Cc2ccccc2)N1Cc1ccc2ccccc2c1", "strain": "RF", "read by": "hybridisation", "result": "<0.21 µM"}
{"structure": "Nc1nc2c(ncn2[C@H]2C=C[C@@H](CO)C2)c(=O)[nH]1", "strain": "IIIB", "read by": "cytopathic effect / XTT", "result": "1.3 µM"}
{"structure": "O=C1N(Cc2ccc3ccccc3c2)[C@H](Cc2ccccc2)[C@H](O)[C@@H](O)[C@@H](Cc2ccccc2)N1Cc1ccc2ccccc2c1", "strain": "RF", "read by": "hybridisation", "result": "<3.9 µM"}
{"structure": "Cc1ncc(-c2ccc(F)c(F)c2)c(N2CCC(C)(C)CC2)c1[C@H](OC(C)(C)C)C(=O)O", "strain": "NL4-3", "read by": "luciferase", "result": "0.007 µM"}
{"structure": "C/C=C/CSc1cc(NC(=S)c2ccsc2C)ccc1Cl", "strain": "IIIB", "read by": "cytopathic effect / XTT", "result": "0.07 µM"}
{"structure": "O=C1N(Cc2ccc3n[nH]nc3c2)[C@H](Cc2ccccc2)[C@H](O)[C@@H](O)[C@@H](Cc2ccccc2)N1Cc1ccc2n[nH]nc2c1", "strain": "RF", "result": "<0.53 µM"}
{"structure": "C=C(C)[C@@H]1CC[C@]2(NCC[C@]3(O)CCC[C@H](S(C)(=O)=O)C3)CC[C@]3(C)[C@H](CC[C@@H]4[C@@]5(C)CC=C(C6=CC[C@](CF)(C(=O)O)CC6)C(C)(C)[C@@H]5CC[C@]43C)[C@@H]12", "strain": "NL4-3", "changes": "A364V", "read by": "luciferase", "result": ">0.05 µM"}
{"structure": "Nc1nc2ccc(CN3C(=O)N(Cc4ccc5nc(N)[nH]c5c4)[C@H](Cc4ccccc4)[C@H](O)[C@@H](O)[C@H]3Cc3ccccc3)cc2[nH]1", "strain": "RF", "result": "<8.1 µM"}
{"structure": "CCCCCCCCCCCCCCCCCCOC[C@H](COP(=O)(O)C(=O)O)OC", "strain": "LAI", "read by": "p24", "result": "0.28 µM"}

For reference, 4 entries again:

structure	strain	changes	read by	result
N#CN=C1N(Cc2ccc(O)cc2)[C@H](Cc2ccccc2)[C@H](O)[C@@H](O)[C@@H](Cc2ccccc2)N1Cc1ccc(O)cc1	RF		hybridisation	<0.25 µM
Nc1ccn([C@H]2CC[C@@H](CO)O2)c(=O)n1	HXB2D (RT D67N K70R T215Y)	RT-D67N K70R T215Y		0.006 µM
O=C1N(Cc2cccc(O)c2)[C@H](Cc2ccccc2)[C@H](O)[C@@H](O)[C@@H](Cc2ccccc2)N1Cc1cccc(O)c1	RF		hybridisation	<0.054 µM
O=C1N(Cc2cccc([N+](=O)[O-])c2)[C@H](Cc2ccccc2)[C@H](O)[C@@H](O)[C@@H](Cc2ccccc2)N1Cc1cccc([N+](=O)[O-])c1	RF		hybridisation	<0.97 µM

Conditions beyond the fields shown may differ between rows. ECn is the concentration giving n% inhibition of infection, replication or growth.